Results of unrelated studies side by side (data: NIAID ChemDB).

Common to all: tests in culture; organism: Mycobacterium tuberculosis

MIC bound comes from a single tested concentration.

compound,strain,changes,method,conditions,endpoint,tested at,result
CC(Nc1ccc2ccccc2c1)C(=O)NN,H37Rv,-,-,-,inhibition,1 µg/mL,100%
Cc1ccc2c(c1)c(N=NC(=S)Nc1ccc(F)cc1)c(O)n2C,H37Rv,-,broth dilution / resazurin,-,EC90,-,>100 µg/mL
O=C1CC(SC(=S)N2CCCCC2)C(=O)N1c1ccccc1,H37Rv,-,BACTEC,-,MIC,-,2 µg/mL
NC(=S)N/N=C/c1cc([N+](=O)[O-])ccc1O,A67,-,-,-,MIC,-,500 µM
OO,H37Rv,-,-,-,inhibition,0.0005 µM,0%
O=C(N/N=C/c1c(O)cccc1O)c1cccnc1.[Cl][V][Cl],H37Rv,-,broth dilution / resazurin,-,MIC,-,0.62 µg/mL
CCCOc1ccc(NC(=O)OCCN2CCOCC2)cc1,My 331/88,-,-,-,MIC,-,1000 µM
CCCC1OP(=O)(N2CC(C)N(P3(=O)OCC(CC)C(CCC)O3)CC2C)OCC1CC,H37Rv,-,BACTEC,-,MIC,-,≥12.5 µg/mL
CN1CCN(Cc2ccccc2NC/C=C/c2ccccc2)CC1,6431,-,-,-,MIC,-,32 µg/mL
NC(=S)Nc1ccc(S(N)(=O)=O)cc1,A67,-,-,-,MIC,-,500 µM
CSC(=S)N/N=C(/C)Cc1ccccn1,RMP-R,-,-,-,MIC,-,1.6 µg/mL
Cn1c(O)c(N=NC(=S)Nc2ccc(F)cc2)c2cc(OC(F)(F)F)ccc21,H37Rv,-,broth dilution / resazurin,-,EC50,-,0.865 µg/mL
CCC(N)C(=O)NC(CO)C(=O)O,H37Rv,-,BACTEC,-,MIC,-,≥12.8 µg/mL
CCCCCC(C)NCCNCCc1ccc(Cl)cc1Cl,-,-,-,-,MIC,-,25 µM
COc1ccc2c(c1)C1CCN(C)CC1OC2=O,H37Rv,-,BACTEC,-,inhibition,12.5 µg/mL,-5%
CC(=O)NCCc1c2c(c3nccc4c3c1Nc1ccccc1-4)NC(=O)CS2,H37Rv,-,-,-,MIC,-,>32 µM
CN(Cc1ccc(C(F)(F)F)cc1F)C1CCN(c2ccc(OC[C@@]3(C)Cn4cc([N+](=O)[O-])nc4O3)cc2)CC1,H37Rv,-,-,-,MIC,-,0.012 µg/mL
CCCCOc1ccc(NC(=O)OCCN2CCOCC2)cc1,My 331/88,-,-,-,MIC,-,250 µM
O=c1oc2ccc(Br)cc2cc1-c1cs/c(=N\N=C\c2ccc(Cl)c(Cl)c2)n1Cc1ccccc1,H37Rv,-,-,-,MIC,-,>6.25 µg/mL
CC(CC(=O)NN)Nc1ccc2ccccc2c1,Drug-resistant,-,-,-,inhibition,10 µg/mL,100%
CCOc1ccc(NC(=O)OCCN2CCOCC2)cc1,My 331/88,-,-,-,MIC,-,>1000 µM
COc1ccc(/C=N/N(C(=O)c2ccncc2)C(=O)c2cnccn2)cc1,9 isolates (sensitive),-,-,-,MIC,-,1–2 µg/mL
CO[C@H]1/C=C/O[C@@]2(C)Oc3c(C)c(O)c4c(O)c(c(/C=N/N5CCN(C)CC5)c(O)c4c3C2=O)NC(=O)/C(C)=C\C=C\[C@H](C)[C@H](O)[C@@H](C)[C@@H](O)[C@@H](C)[C@H](OC(C)=O)[C@@H]1C,H37Rv,-,resazurin,-,MIC90,-,0.06 µM
NC(=S)Nc1cccc(C(=O)O)c1,A67,-,-,-,MIC,-,250 µM
CCOc1ccc2c(c1)n([O-])c1cc(Cl)ccc1[n+]2=O,EMB-R,-,-,-,MIC,-,1.6 µg/mL
C(=C\c1ccccc1)/CNc1ccc(CN2CCOCC2)cc1,B905,-,-,-,MIC,-,>64 µg/mL
CCCCOc1cccc(NC(=O)OCC[NH+]2CCCC2)c1,My 331/88,-,-,-,MIC,-,125 µM
O=c1oc2ccc(Br)cc2cc1-c1cs/c(=N\N=C\c2ccc(F)cc2)n1Cc1ccccc1,H37Rv,-,-,-,inhibition,6.25 µg/mL,<11%
CC(=O)Nc1ccc(/C=C(\NC(=O)c2ccccc2)C(=O)NNS(=O)(=O)c2ccc(C)cc2)cc1,H37Rv,-,BACTEC,-,inhibition,12.5 µg/mL,0%
C[C@]1(COc2ccc(N3CCN(C/C=C/c4ccc(F)c(C(F)(F)F)c4)CC3)cc2)Cn2cc([N+](=O)[O-])nc2O1,H37Rv,-,-,-,MIC,-,0.12 µg/mL
CCc1cc(C(N)=S)ccn1,1620-6,-,-,-,MBC,-,5 µg/mL
[N-]=[N+]=NCCCCCN1C(=O)C2(OCCO2)c2ccccc21,MC2 6230,-,-,-,MIC99,-,166 µM
CCN(CC)CCOC(=O)c1c(C)oc2cc3c(C(=O)OCCN(CC)CC)c(C)oc3cc12,H37Rv,-,BACTEC,-,inhibition,12.5 µg/mL,-2%
Cc1ccc2c(c1)C(=O)C(=O)N2CCCCCCCCN=[N+]=[N-],MC2 6230,-,-,-,MIC99,-,167 µM
CCCCCC(=O)C(C)(c1nc2nnc(NC(=O)Nc3ccc(Cl)cc3)n2[nH]c1=O)c1nc2nnc(NC(=O)Nc3ccc(Cl)cc3)n2[nH]c1=O,H37Rv,-,BACTEC,-,MIC bound,-,>12.5 µg/mL
COc1ccc(CNN(C(=O)c2ccncc2)C(=O)c2cnccn2)cc1,H37Rv,-,-,-,MIC,-,0.25 µg/mL
CCOc1ccccc1CNCCNC(C)c1cccc2ccccc12,-,-,-,-,MIC,-,50 µM
C(=C\c1ccccc1)/CNc1ccccc1Cn1ccnc1,103471,-,-,-,MIC,-,>64 µg/mL
CN[C@@H]1[C@H](O[C@H]2[C@H](O[C@H]3[C@H](O)[C@@H](O)[C@H](N=C(N)N)[C@@H](O)[C@@H]3N=C(N)N)O[C@@H](C)[C@]2(O)C=O)O[C@@H](CO)[C@H](O)[C@H]1O,2219,-,-,-,MIC,-,0.3 µg/mL
NC(=O)c1cnccn1,H37Rv,-,resazurin,pH 6.0,MIC90,-,>100 µM
CC(C)C1NC(=O)C(Cc2c[nH]c3ccccc23)NC1=O,H37Rv,-,BACTEC,-,MIC bound,-,>12.5 µg/mL
CCCCOc1ccc(NC(=O)OCCN(C)C)cc1,My 331/88,-,-,-,MIC,-,125 µM
Cc1cc(=O)n2c(nc3ccccc32)s1,H37Rv,-,resazurin,-,MIC bound,-,>6.25 µg/mL
CCCCN(CCNC[C@@H]1CC[C@H]2C[C@@H]1C2(C)C)Cc1ccccc1,-,-,-,-,MIC,-,50 µM
C[C@]1(COc2ccc(N3CCC(Nc4ccc(Cl)c(Cl)c4)CC3)cc2)Cn2cc([N+](=O)[O-])nc2O1,H37Rv,-,-,-,MIC,-,0.012 µg/mL
COc1ccc(CNCCNC[C@]2(C)CCC[C@]3(C)c4ccc(C(C)C)cc4CC[C@@H]23)c(OC)c1,-,-,-,-,MIC,-,25 µM
CCS(=O)C1=CC(=O)c2nc3ccccc3c3ccnc1c23,H37Rv,-,-,-,MIC,-,>20 µM
Cc1ccc2[nH]c(O)c(N=NC(=S)NC3CCCCC3)c2c1,H37Rv,-,broth dilution / resazurin,-,EC50,-,0.705 µg/mL
CN1CCN(Cc2ccc(NC/C=C/c3ccccc3)cc2)CC1,6425,-,-,-,MIC,-,>64 µg/mL
CCOc1cccc(NC(=O)OCCN(C)C)c1,My 331/88,-,-,-,MIC,-,250 µM
COc1ccc(/C=N/N=c2\scc(-c3cc4ccccc4oc3=O)n2Cc2ccccc2)cc1,H37Rv,-,-,-,MIC,-,>6.25 µg/mL
Cc1ccc2[nH]c(O)c(N=NC(=S)Nc3ccc([N+](=O)[O-])cc3)c2c1,H37Rv,-,broth dilution / resazurin,-,EC50,-,>100 µg/mL
CN1CCN(CCCN2c3ccccc3Sc3ccc(C(F)(F)F)cc32)CC1,Isoniazid-resistant,-,-,-,MIC,-,8 µg/mL
NC(N)=NCCC[C@H]1NC(=O)[C@@H](Cc2ccc(O)cc2)NC1=O,H37Rv,-,BACTEC,-,MIC,-,≥12.5 µg/mL
O=C(c1ccncc1)N(/N=C/c1ccccc1Cl)C(=O)c1cnccn1,H37Rv,-,-,-,MIC,-,0.25 µg/mL
C(=C\c1ccccc1)/CNc1ccc(Cn2ccnc2)cc1,6425,-,-,-,MIC,-,2 µg/mL
Cc1ccc(N=Nc2sc(N)nc2-c2ccccc2)c(C)c1,H37Rv,-,BACTEC,-,MIC bound,-,<6.25 µg/mL
CC1COc2c(N3CCN(C(N)=NC#N)CC3)c(F)cc3c(=O)c(C(=O)O)cn1c23,H27Rv,-,broth dilution,-,MBC,-,0.625 µg/mL
O=C(OCCCl)c1cnccn1,H37Rv,-,resazurin,-,MIC90,-,227.4 µM
C(=C\c1ccccc1)/CNc1cccc(Cn2ccnc2)c1,B905,-,-,-,MIC,-,8 µg/mL
CCN(CC)CCOC(=O)C1C2CC3OC(=O)C1C3C2,H37Rv,-,BACTEC,-,inhibition,12.5 µg/mL,11%
CCCCCCCCOc1cccc(NC(=O)OCCN2CCCCCC2)c1,My 331/88,-,-,-,MIC,-,8 µM
COc1ccc(NC(=S)N=Nc2c(O)[nH]c3ccc(OC(F)(F)F)cc23)cc1,H37Rv,-,broth dilution / resazurin,-,EC90,-,>100 µg/mL
O=C(c1ccncc1)N(/N=C/c1cccc(Cl)c1)C(=O)c1cnccn1,9 isolates (sensitive),-,-,-,MIC,-,0.5–1 µg/mL
O=C1c2c([nH]ccc2=O)-c2nccc3c2c1nc1ccccc13,H37Rv,-,-,-,MIC,-,>42 µM
NC(=S)Nc1ccccc1O,A67,-,-,-,MIC,-,31.25 µM
NC(=O)c1cnc(Cl)cn1,VA 205,-,-,-,MIC,-,32 µg/mL
O=C1CCCCCCCCCCOCCCCO1,H37Rv,-,BACTEC,-,MIC,-,≥12.5 µg/mL
NNC(=O)c1ccncc1,Isolate N,-,-,-,MIC,-,0.062 µg/mL
Cn1c([N+](=O)[O-])cnc1CSc1ccc(C#N)cc1,H37Rv,-,resazurin,-,inhibition,6.25 µg/mL,14%
O=C1c2cccnc2-c2nccc3c2c1nc1ccccc13,H37Rv,-,-,-,MIC,-,0.35 µM
O=C(OCCOC(=O)c1cnccn1)c1cnccn1,-,Pyrazinamide-resistant,resazurin,pH 6.0,MIC90,-,>365 µM
[N-]=[N+]=NCCCCN1C(=O)C(=O)c2cc(Cl)ccc21,MC2 6230,-,-,-,MIC99,-,164 µM
COc1ccc(NC(=S)N=Nc2c(O)n(CN3CCOCC3)c3ccc(OC(F)(F)F)cc23)cc1,H37Rv,-,broth dilution / resazurin,-,EC50,-,2.404 µg/mL
COC(=O)N[C@H](C(=O)N[C@@H](Cc1ccccc1)[C@@H](O)CN(Cc1ccc(-c2ccccc2)cc1)NC(=O)[C@@H](NC(=O)OC)C(C)(C)C)C(C)(C)C,H37Rv,-,resazurin,-,MIC bound,-,>6.25 µg/mL
COC1=CC(=O)c2nc3ccccc3c3ccnc1c23,H37Rv,-,-,-,MIC,-,1.5 µM
C[C@]1(COc2ccc(N3CCN(C/C=C/c4c(Cl)cccc4Cl)CC3)cc2)Cn2cc([N+](=O)[O-])nc2O1,H37Rv,-,-,-,MIC,-,0.024 µg/mL
O=c1c2ccccc2c2nc3ccc4c(=O)c5ccccc5c5nc6ccc1c2c6c3c45,H37Rv,-,BACTEC,-,MIC bound,-,>12.5 µg/mL
CC(CNC[C@@H]1CC[C@H]2C[C@@H]1C2(C)C)NCCC(c1ccccc1)c1ccccc1,-,-,-,-,MIC,-,12.5 µM
O=c1oc2ccccc2cc1-c1cs/c(=N\N=C\c2cc([N+](=O)[O-])ccc2O)n1Cc1ccccc1,H37Rv,-,-,-,inhibition,6.25 µg/mL,<11%
c1ccc(CCCNCCNC(c2ccccc2)c2ccccc2)cc1,-,-,-,-,MIC,-,50 µM
CC(C)=CCOc1c2ccoc2cc2oc(=O)ccc12.NNC(=O)c1ccncc1,H37Rv clinical isolate CRY7,Isoniazid-resistant,agar,-,MIC100,-,25 µg/mL
CC(C)c1ccc2c(c1)CC[C@H]1[C@](C)(CNCCNCC(C)c3ccccc3)CCC[C@]21C,-,-,-,-,MIC,-,12.5 µM
O=C(N/N=C/c1c(O)cccc1O)c1cccnc1.[Cl][Fe][Cl],H37Rv,-,broth dilution / resazurin,-,MIC,-,0.76 µg/mL
Cc1ccc2c(c1)C(=O)C(=O)N2CCCCCN=[N+]=[N-],MC2 6230,-,-,-,MIC99,-,184 µM
C(/C=C/c1ccccc1)=Nc1ccc(Cn2ccnc2)cc1,6431,-,-,-,MIC,-,32 µg/mL
COc1ccc(/C=N/N(C(=O)c2ccncc2)C(=O)c2cnccn2)c(O)c1,H37Rv,-,-,-,MIC,-,>16 µg/mL
Cc1cc(N/N=C/c2ccc([N+](=O)[O-])o2)c2cc3c(cc2n1)OCO3,H37Rv,-,BACTEC,-,inhibition,12.5 µg/mL,100%
[N-]=[N+]=NCCCN1C(=O)C2(OCCO2)c2ccccc21,MC2 6230,-,-,-,MIC99,-,>365 µM
COC(=O)C1(C)C=CC(=O)C2(C)C1C(O)C1OC3CC(c4ccoc4)C(C)=C3C1(C)C2CC(=O)O,H37Rv,-,BACTEC,-,inhibition,12.8 µg/mL,24%
CC(=O)NCCC1=C2Nc3ccccc3C3C=CN=C(C4=C1SCO4)C23,H37Rv,-,-,-,MIC,-,>17 µM

The first 5 rows once more:

compound | strain | changes | method | conditions | endpoint | tested at | result
CC(Nc1ccc2ccccc2c1)C(=O)NN | H37Rv | - | - | - | inhibition | 1 µg/mL | 100%
Cc1ccc2c(c1)c(N=NC(=S)Nc1ccc(F)cc1)c(O)n2C | H37Rv | - | broth dilution / resazurin | - | EC90 | - | >100 µg/mL
O=C1CC(SC(=S)N2CCCCC2)C(=O)N1c1ccccc1 | H37Rv | - | BACTEC | - | MIC | - | 2 µg/mL
NC(=S)N/N=C/c1cc([N+](=O)[O-])ccc1O | A67 | - | - | - | MIC | - | 500 µM
OO | H37Rv | - | - | - | inhibition | 0.0005 µM | 0%

Lines come from different laboratories, so protocols vary. Blank or dashed fields: not listed here. MIC50, MIC90 and the like: level of inhibition, or share of isolates inhibited. ECn: concentration that inhibits the pathogen or its effect by n%. Inhibition is in % at the dose shown (toxicity tests: loss of growth or viability). a–b is a range or a potency band.